{
  "source": "paper PMC12769810",
  "about": "“Structure and substrate promiscuity of Campylobacter jejuni periplasmic nitrate reductase (Nap) and phylogenetic analysis of Nap homologs” (The Journal of Biological Chemistry, 2025)",
  "key": {"[O-][Cl+2]([O-])O": {"tested_on": "[O-][Cl+2]([O-])O", "experiment": "purified protein", "conditions": "reduced methyl viologen, 50 mM HEPES pH 7, room temperature, argon glove box, 430 nM enzyme"}, "[O-][Cl+3]([O-])([O-])O": {"tested_on": "[O-][Cl+3]([O-])([O-])O", "experiment": "purified protein", "conditions": "reduced methyl viologen, 50 mM HEPES pH 7, room temperature, argon glove box, 217 nM enzyme, corrected for background oxidation"}},
  "data": [
    {"substance": "CjNapA (WT NapA) (Campylobacter jejuni subsp. jejuni NCTC 11168 = ATCC 700819; C176D)", "values": [
      {"measurement": "Km", "setting": "[O-][Cl+2]([O-])O", "result": "0.549 ± 0.065", "unit": "mM"},
      {"measurement": "kcat", "setting": "[O-][Cl+2]([O-])O", "result": 0.35, "unit": "s⁻¹"},
      {"measurement": "kcat/Km", "setting": "[O-][Cl+2]([O-])O", "result": 640, "unit": "M⁻¹ s⁻¹"},
      {"measurement": "Km", "setting": "[O-][Cl+3]([O-])([O-])O", "result": "7.678 ± 0.855", "unit": "mM"},
      {"measurement": "kcat", "setting": "[O-][Cl+3]([O-])([O-])O", "result": 0.51, "unit": "s⁻¹"},
      {"measurement": "kcat/Km", "setting": "[O-][Cl+3]([O-])([O-])O", "result": 66, "unit": "M⁻¹ s⁻¹"}
    ]}
  ]
}
